{"source": "PubChem BioAssay AID624099 (ICCB-Longwood, 2012)", "purpose": "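Human genes that papillomavirus E2 requires to repress the HPV18 LCR promoter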 (primary screen)", "system": "human C33A cervical carcinoma cells (HPV-negative) stably expressing BPV1 E2 and an HPV18 LCR luciferase reporter", "reagents": "siRNA pool against human genes, 40 nM", "timing": "72 h", "read-out": "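Per-well luciferase luminescence, z-scored on each plate against the plate mean and SD with control wells left out, then averaged across three replicate plates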", "reading the numbers": "mean z-score and z-score: higher = stronger reporter signal, weaker E2 silencing", "hit rule": "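Hit if mean z-score reaches 2 and two or more of three replicate z-scores also reach 2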", "note": "Shown is one part, drawn at random, of about 21,000 deposited reagents. 497 of all reagents (2.4%) count as active. 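Higher z means weaker E2 silencing; only reporter increases were scored, and knock-downs that hurt cell survival may mask genuine repressor factors.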 A number with no mark means an inactive call. Reagent sequences are not shown."}
{"target gene":"ERCC6L2-AS1 (GeneID 100128782)","mean z-score":-1.14,"z-score, replicate A":-1.31,"z-score, replicate B":-1.07,"z-score, replicate C":-1.03}
{"target gene":"TBX6 (GeneID 6911)","mean z-score":-0.58,"z-score, replicate A":-0.52,"z-score, replicate B":-0.53,"z-score, replicate C":-0.7}
{"target gene":"LOC389707 (retired record) (GeneID 389707)","mean z-score":-0.02,"z-score, replicate A":-0.33,"z-score, replicate B":-0.35,"z-score, replicate C":0.63}
{"target gene":"NUP42 (GeneID 11097)","mean z-score":"2.22 (active)","z-score, replicate A":2.21,"z-score, replicate B":2.31,"z-score, replicate C":2.15}
{"target gene":"NOL9 (GeneID 79707)","mean z-score":-0.19,"z-score, replicate A":-0.61,"z-score, replicate B":-0.15,"z-score, replicate C":0.18}
{"target gene":"DCTPP1 (GeneID 79077)","mean z-score":-1,"z-score, replicate A":-0.89,"z-score, replicate B":-1.21,"z-score, replicate C":-0.91}
{"target gene":"ARHGDIG (GeneID 398)","mean z-score":1.13,"z-score, replicate A":1.05,"z-score, replicate B":0.87,"z-score, replicate C":1.45}
{"target gene":"DCAF16 (GeneID 54876)","mean z-score":0.93,"z-score, replicate A":1.39,"z-score, replicate B":0.81,"z-score, replicate C":0.57}
{"target gene":"ZBTB10 (GeneID 65986)","mean z-score":0.42,"z-score, replicate A":0.45,"z-score, replicate B":0.4,"z-score, replicate C":0.4}
{"target gene":"LOC387888 (retired record) (GeneID 387888)","mean z-score":0.83,"z-score, replicate A":0.63,"z-score, replicate B":0.93,"z-score, replicate C":0.93}
{"target gene":"SPOCK3 (GeneID 50859)","mean z-score":-0.12,"z-score, replicate A":-0.51,"z-score, replicate B":0.14,"z-score, replicate C":0}
{"target gene":"PCDHB4 (GeneID 56131)","mean z-score":1.28,"z-score, replicate A":1.04,"z-score, replicate B":1.56,"z-score, replicate C":1.24}

Targets above whose gene name starts with L or l (2):
{"target gene":"LOC389707 (retired record) (GeneID 389707)","mean z-score":-0.02,"z-score, replicate A":-0.33,"z-score, replicate B":-0.35,"z-score, replicate C":0.63}
{"target gene":"LOC387888 (retired record) (GeneID 387888)","mean z-score":0.83,"z-score, replicate A":0.63,"z-score, replicate B":0.93,"z-score, replicate C":0.93}
